Pooled drug test results. Numbers come from NIAID ChemDB, via PubChem.

All rows: tests in culture; agent: HIV-1; cell line: MT-4; read-out: EC50

ECn: concentration that inhibits the pathogen or its effect by n%. An empty or dashed field is not shown. Lines come from different laboratories, so protocols vary.

SMILES,strain,changes,read by,result
C[C@H]1CC[C@]2(CC(n3nccn3)=NO2)[C@H]2CN1C(=O)c1c(O)c(=O)c(C(=O)NCc3c(F)cc(F)cc3F)cn12,IIIB,-,entry / luminescence,0.001 µM
COc1ccc(N(C)C(=O)[C@H](Cc2cc(F)cc(F)c2)NC(=O)CN2CCN(S(=O)(=O)c3cccc(Cl)c3)CC2=O)cc1,IIIB,-,MTT,0.93 µM
CCOC(=O)c1c([N+](=O)[O-])c(-c2ccccc2)n(COCCOC(C)=O)c1-c1ccccc1,-,-,cytopathic effect / MTT,>96 µM
[2H]C([2H])([15NH]C(=O)c1cn2c(c(O)c1=O)C(=O)N1C[C@@H]2[C@]2(CC[C@@H]1C)CC(C)=NO2)c1ccc(F)cc1F,IIIB,-,luminescence,0.0018 µM
Nc1nc(NC2CC2)c2ncn([C@H]3C=C[C@@H](CO)C3)c2n1,XM-ABC-resistant,RT-K65R L74V M184V Y115F,p24,<100 µM
CC(C)(C)[Si](C)(C)OC[C@H]1O[C@@H](n2ccc(=O)[nH]c2=O)[C@H](O[Si](C)(C)C(C)(C)C)C1(O)[C@H](N=[N+]=[N-])C(N)=O,IIIB,-,cytopathic effect / trypan blue,>10 µM
CN1CSC([C@H]2[C@H](O)[C@H](n3ccc(=O)[nH]c3=O)O[C@@H]2CO)SC1,-,-,MTT,>100 µM
COc1cc(Cc2cnc(/N=C3\C(=O)N(CN4CCCC4)c4ccc(F)cc43)nc2N)cc(OC)c1OC,IIIB,-,cytopathic effect / MTT,>129.6 µg/mL
COC(=O)/C=C/c1cn([C@@H]2O[C@H](CO)[C@@H](CO)[C@@H]2O)c(=O)[nH]c1=O,-,-,MTT,>100 µM
COc1ccc(N(C)C(=O)[C@H](Cc2cc(F)cc(F)c2)NC(=O)CN2CCN(S(=O)(=O)c3ccccc3[N+](=O)[O-])CC2=O)cc1,IIIB,-,MTT,2.84 µM
O=C(Nc1ccccc1I)c1ccccc1Sc1ccc([N+](=O)[O-])cc1,LAI,-,-,>50 µM
Cc1cn([C@@H]2O[C@H](CO)[C@@H](C3SCN(C)CS3)[C@@H]2O)c(=O)[nH]c1=O,-,-,MTT,>100 µM
CC1(CO)O[C@H](n2cnc3c(N)ncnc32)[C@@H](O)[C@H]1O,IIIB,-,-,>100 µM
COc1ccccc1NC(=O)c1ccccc1Sc1ccc([N+](=O)[O-])cc1,LAI,-,-,>50 µM
CCOC(=O)c1c(Cl)c(-c2ccccc2)n(COCCOC(C)=O)c1C,-,-,cytopathic effect / MTT,>82 µM
O=c1[nH]c(=O)n([C@@H]2O[C@H](CO)[C@H](CO)[C@@H]2O)cc1I,-,-,MTT,>100 µM
CC(C)(C)[Si](C)(C)OC[C@H]1O[C@@H](n2ccc(=O)[nH]c2=O)[C@H](O[Si](C)(C)C(C)(C)C)/C1=C/CO,IIIB,-,cytopathic effect / trypan blue,>2 µM
O=c1[nH]c(=O)n([C@@H]2O[C@H](CO)[C@@H](CO)[C@@H]2O)cc1/C=C/Br,-,-,MTT,>100 µM
Cc1cn([C@H]2C=C[C@@H](CO)O2)c(=O)[nH]c1=O,RD 22wt-RT,-,cytopathic effect / MTT,0.3 µM
Nc1nc(=O)n([C@H]2C=C[C@@H](CO)O2)cc1F,XM-M184V,RT-M184V,p24,<2 µM
CCC[C@@]1(CCc2ccccc2)CC(O)=C([C@H](CC)c2cccc(NS(=O)(=O)c3ccc(C(F)(F)F)cn3)c2)C(=O)O1,T21729,R41E,reporter gene,2587 nM
Nc1ccn([C@H]2CC[C@@H](CO)O2)c(=O)n1,-,Y188H,MTT,0.01 µM
CC1=NO[C@]2(CC[C@H](C)N3C[C@H]2n2cc(C(=O)NCc4ccc(F)cc4F)c(=O)c(O)c2C3=O)C1=O,IIIB,-,luminescence,0.1 µM
C[C@]1(CO)O[C@@H](n2cnc3c(=O)[nH]c(N)nc32)[C@H](O)[C@@H]1O,IIIB,-,-,>100 µM
COc1cccc(N2CCN(CN3C(=O)/C(=N\c4ncc(Cc5cc(OC)c(OC)c(OC)c5)c(N)n4)c4cc(F)ccc43)CC2)c1,IIIB,-,cytopathic effect / MTT,>81.6 µg/mL
CCOC(=O)c1c(Br)c(-c2ccccc2)n(COCCOC(C)=O)c1-c1ccccc1,-,-,cytopathic effect / MTT,>47 µM
COc1cc(Cc2cnc(/N=C3\C(=O)N(CN4CCN(c5ccc(Cl)cc5)CC4)c4ccc(F)cc43)nc2N)cc(OC)c1OC,IIIB,-,cytopathic effect / MTT,36.2 µg/mL
CC(=O)OCCOCn1c(-c2ccccc2)c(Br)c(-c2ccccc2)c1-c1ccccc1,-,-,cytopathic effect / MTT,>16 µM
CC(C)(C)[Si](C)(C)OC[C@H]1O[C@@H](n2ccc(=O)[nH]c2=O)[C@H](O[Si](C)(C)C(C)(C)C)[C@@]12O[C@H]2C(=O)NO,IIIB,-,cytopathic effect / trypan blue,>10 µM
COC(=O)c1ccc(NC(=O)c2ccccc2Sc2ccc([N+](=O)[O-])cc2)c(OC)c1,LAI,-,-,>50 µM
O=c1ccn([C@H]2C[C@H](CO)[C@@H](CO)O2)c(=O)[nH]1,-,-,MTT,>100 µM
Cc1cn([C@@H]2O[C@H](CO[Si](C)(C)C(C)(C)C)C3(O[C@H]3C(N)=O)[C@H]2O[Si](C)(C)C(C)(C)C)c(=O)[nH]c1=O,IIIB,-,cytopathic effect / trypan blue,>2 µM
COc1cc(Cc2cnc(/N=C3\C(=O)N(CN(C)C)c4ccc(F)cc43)nc2N)cc(OC)c1OC,IIIB,-,cytopathic effect / MTT,>62.7 µg/mL
Cc1ccc2c(c1)c1ccc(C)cc1c1ccc(CCCCCN3C(=O)CCC3=O)cc21,IIIB,-,cytopathic effect,30 µM
Cc1cn([C@@H]2O[C@@H]3COC(O)[C@@H]3[C@@H]2O)c(=O)[nH]c1=O,-,-,MTT,>100 µM
COc1cc(Cc2cnc(/N=C3\C(=O)N(CN4CCN(c5cc6c(cc5F)c(=O)c(C(=O)O)cn6C5CC5)CC4)c4ccc(F)cc43)nc2N)cc(OC)c1OC,IIIB,-,cytopathic effect / MTT,17.9 µg/mL
O=[N+]([O-])c1c(-c2ccccc2)c(-c2ccccc2)n(COCCO)c1-c1ccccc1,-,-,cytopathic effect / MTT,37 µM
CC(C)CN(C[C@@H](O)[C@H](Cc1cc(F)cc(F)c1)NC(=O)OC1C[C@H]2C[C@H]3C1CO[C@H]3O2)S(=O)(=O)c1ccc2nc(NC3CC3)sc2c1,NL4-3,-,ELISA,0.000034 µM
COc1ccc(N(C)C(=O)[C@H](Cc2cc(F)cc(F)c2)NC(=O)CN2CCN(S(=O)(=O)c3cccc(NC(C)=O)c3)CC2=O)cc1,IIIB,-,MTT,0.21 µM
CN(C)c1ccc(Nc2c3ccc(NC(=O)CCN4CCCC4)cc3nc3cc(NC(=O)CCN4CCCC4)ccc23)cc1,IIIB,Persistently infected cells,p24 / antigen,5 µM
CC(C)(C)[Si](C)(C)OC[C@H]1O[C@@H](n2ccc(=O)[nH]c2=O)[C@H](O[Si](C)(C)C(C)(C)C)C1(O)C(Cl)C(N)=O,IIIB,-,cytopathic effect / trypan blue,>2 µM
C[C@@H]1CO[C@]2(CC[C@H](C)N3C[C@H]2n2cc(C(=O)NCc4c(F)cc(F)cc4F)c(=O)c(O)c2C3=O)O1,IIIB,-,luminescence,0.0007 µM
CC(C)(C)[Si](C)(C)OC[C@H]1O[C@@H](n2ccc(=O)[nH]c2=O)[C@H](O[Si](C)(C)C(C)(C)C)[C@@]12O[C@H]2C(=O)NN,IIIB,-,cytopathic effect / trypan blue,>2 µM
C[C@H]1CC[C@]2(CC(=O)N(CC3CCOCC3)O2)[C@H]2CN1C(=O)c1c(O)c(=O)c(C(=O)NCc3c(F)cc(F)cc3F)cn12,IIIB,-,luminescence,0.0023 µM
CS(=O)(=O)Oc1ccccc1NC(=O)c1ccccc1Sc1ccc([N+](=O)[O-])cc1,LAI,-,-,>50 µM

Repeating the final 6 entries:

SMILES | strain | changes | read by | result
CN(C)c1ccc(Nc2c3ccc(NC(=O)CCN4CCCC4)cc3nc3cc(NC(=O)CCN4CCCC4)ccc23)cc1 | IIIB | Persistently infected cells | p24 / antigen | 5 µM
CC(C)(C)[Si](C)(C)OC[C@H]1O[C@@H](n2ccc(=O)[nH]c2=O)[C@H](O[Si](C)(C)C(C)(C)C)C1(O)C(Cl)C(N)=O | IIIB | - | cytopathic effect / trypan blue | >2 µM
C[C@@H]1CO[C@]2(CC[C@H](C)N3C[C@H]2n2cc(C(=O)NCc4c(F)cc(F)cc4F)c(=O)c(O)c2C3=O)O1 | IIIB | - | luminescence | 0.0007 µM
CC(C)(C)[Si](C)(C)OC[C@H]1O[C@@H](n2ccc(=O)[nH]c2=O)[C@H](O[Si](C)(C)C(C)(C)C)[C@@]12O[C@H]2C(=O)NN | IIIB | - | cytopathic effect / trypan blue | >2 µM
C[C@H]1CC[C@]2(CC(=O)N(CC3CCOCC3)O2)[C@H]2CN1C(=O)c1c(O)c(=O)c(C(=O)NCc3c(F)cc(F)cc3F)cn12 | IIIB | - | luminescence | 0.0023 µM
CS(=O)(=O)Oc1ccccc1NC(=O)c1ccccc1Sc1ccc([N+](=O)[O-])cc1 | LAI | - | - | >50 µM